In article PMC4560900, “High-throughput screening against thioredoxin glutathione reductase identifies novel inhibitors with potential therapeutic value for schistosomiasis” (Infectious Diseases of Poverty, 2015):
pIC50: −log10 of the molar value.

By UniProt entry, the sequences of proteins in these tests, tags left out. Residues count along the entry.
UniProt Q962Y6, 1-598: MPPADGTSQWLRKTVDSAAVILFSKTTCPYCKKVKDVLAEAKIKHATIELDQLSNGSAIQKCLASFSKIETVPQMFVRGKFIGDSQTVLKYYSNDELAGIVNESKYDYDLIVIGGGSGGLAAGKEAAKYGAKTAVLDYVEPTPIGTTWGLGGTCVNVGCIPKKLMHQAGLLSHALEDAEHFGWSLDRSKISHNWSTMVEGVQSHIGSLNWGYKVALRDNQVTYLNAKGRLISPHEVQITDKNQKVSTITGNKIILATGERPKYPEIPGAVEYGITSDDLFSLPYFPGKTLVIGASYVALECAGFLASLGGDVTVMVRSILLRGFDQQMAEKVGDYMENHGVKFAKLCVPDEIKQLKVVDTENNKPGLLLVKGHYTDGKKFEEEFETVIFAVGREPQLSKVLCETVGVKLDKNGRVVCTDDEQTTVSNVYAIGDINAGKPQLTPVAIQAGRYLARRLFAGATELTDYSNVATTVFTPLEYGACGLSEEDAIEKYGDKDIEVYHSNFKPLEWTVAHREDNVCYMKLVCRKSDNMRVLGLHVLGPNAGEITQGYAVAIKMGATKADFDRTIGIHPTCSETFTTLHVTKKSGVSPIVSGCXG

Experiments:
[1] = target: Thioredoxin glutathione reductase from S. mansoni (SmTGR) (Schistosoma mansoni, UniProt Q962Y6); assay: Endpoint SmTGR fluorescence (ThioGlo) assay; type: biochemical; conditions: inhibition of SmTGR; for Efficacy (%): 30 μM naphthazarin defined as 100 % inhibition, means ± SEM; for pIC50: means ± SEM of at least three independent experiments
[2] = test system: larval worms (schistosomula); assay: Ex vivo cidal activity against cultured larval parasites (schistosomula); conditions: tested at 50, 25, 12.5, 6.25 and 3.125 μM, n.a. = no activity
[3] = test system: adult worms; assay: Ex vivo cidal activity against adult worms; conditions: tested at 10 and 5 μM, n.a. = no activity

SMILES	Efficacy (%) [1] [%]	Larva: lowest concentration resulting in 100 % larval death at 48 hours [2] [µM]	Adult: lowest concentration resulting in 100 % worm death on day seven [3] [µM]	pIC50 [1]
O=[N+]([O-])c1ccc2c(c1)S(=O)(=O)C=C2	98.09 ± 1.56	3.125	10	
O=c1c(Cl)c(-n2cc(CO)nn2)cnn1-c1ccccc1	78.85 ± 2.35	3.125	10	5.20
CN(C)CC1Oc2ccccc2OC1(O)c1ccccc1 (stereo not shown)	98.44 ± 0.80	50		5.13
Cc1ccc(S(=O)(=O)c2ccc([N+](=O)[O-])c[n+]2[O-])cc1	95.55 ± 2.02	3.125		6.06
